# Structure probing of HIV-1 leader RNA with DMS

Values reported by Ye et al. 2022 (doi:10.1038/s41594-022-00746-2).

Sequence of the HIV-1 NL4-3 5' RNA, positions 1 to 437, as numbered in the source:
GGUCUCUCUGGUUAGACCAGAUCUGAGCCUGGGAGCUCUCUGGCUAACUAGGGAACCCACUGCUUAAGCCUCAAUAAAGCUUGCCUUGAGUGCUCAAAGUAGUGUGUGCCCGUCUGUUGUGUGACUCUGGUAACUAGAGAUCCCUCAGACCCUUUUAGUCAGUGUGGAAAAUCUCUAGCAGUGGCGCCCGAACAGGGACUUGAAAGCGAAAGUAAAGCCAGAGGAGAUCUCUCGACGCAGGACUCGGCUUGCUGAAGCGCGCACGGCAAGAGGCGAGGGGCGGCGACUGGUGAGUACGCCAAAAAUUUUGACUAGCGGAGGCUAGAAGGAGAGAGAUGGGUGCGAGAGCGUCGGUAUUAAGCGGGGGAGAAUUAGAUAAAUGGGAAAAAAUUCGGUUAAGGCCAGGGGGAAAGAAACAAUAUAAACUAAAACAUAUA

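Mutant RNA libraries with 1G, 2G or 3G starts, with or without cap, were folded at 37 °C for 30 min. High salt was 300 mM KCl and 5 mM MgCl2, low salt 40 mM KCl and 0.1 mM MgCl2; monomer and dimer were parted on a native gel. Each band was probed in the gel with DMS (170 mM, 15 min, 37 °C), with ethanol as control, and sequenced.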

Values are winsor-normalised DMS reactivities of A and C; higher means more reactive, usually unpaired.
One numbering serves 1G, 2G and 3G.
A position is written with its base.

A359 read 1G capped low-salt dimer 0.52; 3G uncapped low-salt monomer 0.44.
C426 read 1G capped low-salt dimer 0.78; 3G uncapped low-salt monomer 0.69.
A271 (domain SL1) read 1G capped low-salt dimer 0.58; 3G uncapped low-salt monomer 0.50.
C95 (domain PolyA) read 1G capped low-salt dimer 0.56; 3G uncapped low-salt monomer 0.46.
A255 (domain SL1) read 1G capped low-salt dimer 0.49; 3G uncapped low-salt monomer 0.47.
A386 read 1G capped low-salt dimer 1.34; 3G uncapped low-salt monomer 1.33.
A286 (domain SL2) read 1G capped low-salt dimer 0.64; 3G uncapped low-salt monomer 0.52.
A157 (domain PBS) read 1G capped low-salt dimer 0.97; 3G uncapped low-salt monomer 0.96.
C142 (domain PBS) read 1G capped low-salt dimer 0.08; 3G uncapped low-salt monomer 0.08.
A304 read 1G capped low-salt dimer 0.17; 3G uncapped low-salt monomer 0.15.
A347 read 1G capped low-salt dimer 0.29; 3G uncapped low-salt monomer 0.21.
A220 (domain antiPAS) read 1G capped low-salt dimer 0.24; 3G uncapped low-salt monomer 0.30.
A303 read 1G capped low-salt dimer 0.08; 3G uncapped low-salt monomer 0.07.
C243 (domain SL1) read 1G capped low-salt dimer 0.06; 3G uncapped low-salt monomer 0.06.
C362 read 1G capped low-salt dimer 0.34; 3G uncapped low-salt monomer 0.41.
A55 (domain TAR) read 1G capped low-salt dimer 0.44; 3G uncapped low-salt monomer 0.20.
A97 (domain PolyA) read 1G capped low-salt dimer 0.37; 3G uncapped low-salt monomer 0.71.
C179 (domain PBS) read 1G capped low-salt dimer 0.77; 3G uncapped low-salt monomer 0.95.
A76 (domain PolyA) read 1G capped low-salt dimer 0.27; 3G uncapped low-salt monomer 0.29.
A147 (domain PBS) read 1G capped low-salt dimer 0.45; 3G uncapped low-salt monomer 0.40.
C114 read 1G capped low-salt dimer 0.26; 3G uncapped low-salt monomer 0.19.
C297 (domain SL2) read 1G capped low-salt dimer 0.14; 3G uncapped low-salt monomer 0.19.
C352 read 1G capped low-salt dimer 0.46; 3G uncapped low-salt monomer 0.36.
A425 read 1G capped low-salt dimer 0.54; 3G uncapped low-salt monomer 0.48.
C63 (domain PolyA) read 1G capped low-salt dimer 0.07; 3G uncapped low-salt monomer 0.65.
A19 (domain TAR) read 1G capped low-salt dimer 0.05; 3G uncapped low-salt monomer 0.03.